# PSTVd loop 15 mutant pool in Nicotiana benthamiana

Reference: Wu et al. 2024, doi:10.1371/journal.ppat.1012142.

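A pool of all variants was put on leaves of three Nicotiana benthamiana plants. Progeny were sequenced from the inoculated region (day 5), the margin of the inoculated leaf (day 10) and systemic leaves (day 12).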

The pool varies loop 15 of the PSTVd intermediate strain in the pattern GGAAACCGNNNNNNC; wild type is GGAAACCGCUACUAC (upper and lower strand joined, each 5' to 3', the first 7 letters being the upper strand, closing pairs included).

Numbers give reads per thousand; 0 = not seen among the reads, higher = more abundant. Each value is the mean of three plants. "Pool" is the share in the plasmid pool used as inoculum, on the same scale. The inoculated region was read from the minus strand, the other sites from the plus strand. The authors trace changes outside the varied positions to PCR and sequencing errors or to mutation in the plant; presence does not show that a variant is infectious alone. Samples held 43,870 to 66,106 reads, so the smallest values rest on one or two reads. For reference, wild type rose from 33.9 per thousand in the pool to 202, 200, 159 (inoculated region), 724, 746, 710 (leaf margin) and 856, 883, 880 (systemic leaves).

sequence,pool,inoculated region,leaf margin,systemic leaves
GGAAACCGUCGUCAC,0.112,0.120,0.0134,0
GGAAACCGUGGUGGC,0.320,0.0653,0.0241,0
GGAAACCGUCAAGUC,0.240,0.0808,0.0175,0.00537
GGAAACCGGGCCUUC,0.240,0.0940,0.00668,0
GGAAACCGCGAACCC,0.224,0.104,0,0
GGAAACCGCAGUCCC,0.272,0.0930,0.00668,0
GGAAACCGACCUUUC,0.192,0.325,0,0
GGAAACCGAUAUAUC,0.240,0.460,0.0869,0.0511
GGAAACCGUUAGGUC,0.176,0.311,0.180,0.0699
GGAAACCGGUUUGAC,0.288,0.0805,0.0202,0
GGAAACCGUGUGAUC,0.192,0.0902,0.0187,0
GGAAACCGGACAUUC,0.208,0.0720,0,0
GGAAACCGUGGAUUC,0.208,0.0805,0.0121,0
GGAAACCGCCAACCC,0.272,0.107,0.0134,0
GGAAACCGAAACGAC,0.144,0.0979,0.0195,0
GGAAACCGCUAGGGC,0.224,0.326,0.170,0.0268
GGAAACCGUCGUGGC,0.272,0.0669,0,0
GGAAACCGAAACUGC,0.272,0.365,0.127,0.0107
GGAAACCGCGUUGUC,0.256,0.130,0,0
GGAAACCGAUACGUC,0.144,0.0930,0.0254,0
GGAAACCGGGCAAGC,0.256,0.0776,0,0
GGAAACCGUCGCCAC,0.208,0.0857,0.0128,0
GGAAACCGUGGAUAC,0.288,0.274,0.106,0.0812
GGAAACCGUGCUGUC,0.272,0.0774,0.0182,0
GGAAACCGAUGCAAC,0.336,0.0878,0,0
GGAAACCGGCGGGUC,0.272,0.0512,0.0141,0
GGAAACCGUCCACGC,0.256,0.0814,0.0187,0.0107
GGAAACCGAAGGCGC,0.176,0.152,0,0
GGAAACCGAGACGCC,0.176,0.0632,0,0.00537
GGAAACCGAAUGAGC,0.288,0.136,0.00539,0.00537
GGAAACCGACUUCCC,0.176,0.138,0.0208,0
GGAAACCGAUGGUGC,0.192,0.237,0.141,0.0689
GGAAACCGGAUGGUC,0.288,0.100,0.0134,0
GGAAACCGCACCGCC,0.192,0.119,0.0182,0
GGAAACCGGGUGCAC,0.240,0.108,0.00668,0
GGAAACCGCCCUGUC,0.0960,0.286,0.0148,0.0107
GGAAACCGUCACCCC,0.256,0.0838,0,0.0107
GGAAACCGGGACCCC,0.128,0.0896,0.0208,0
GGAAACCGAUGUCAC,0.256,0.0848,0.0208,0.00537
GGAAACCGACUUGAC,0.272,0.0743,0,0
GGAAACCGACCGUGC,0.240,0.411,0.134,0.00537
GGAAACCGAUCUAGC,0.144,0.0560,0.00539,0
GGAAACCGGCGCGAC,0.208,0.0797,0.0148,0
GGAAACCGGUAAAGC,0.320,0.0955,0,0.00537
GGAAACCGGCUACCC,0.176,0.108,0.0134,0
GGAAACCGGAUUAAC,0.240,0.107,0.0121,0.00537
GGAAACCGGCUGAGC,0.144,0.0813,0.0128,0.00537
GGAAACCGGGGUCUC,0.272,0.0886,0.00742,0
GGAAACCGAAUGCGC,0.256,0.117,0.0121,0
GGAAACCGACACGUC,0.160,0.0955,0.0388,0
GGAAACCGGUAUAUC,0.128,0.318,0.113,0.0107
GGAAACCGUUUCCCC,0.144,0.0613,0,0
GGAAACCGCGCGCCC,0.272,0.101,0.0175,0.0107
GGAAACCGGAAGGCC,0.192,0.0678,0.00539,0
GGAAACCGAUAGGGC,0.304,0.394,0.0819,0.00537
GGAAACCGAUGCGGC,0.160,0.112,0,0
GGAAACCGGAACUAC,0.192,0.276,0.131,0.0439
GGAAACCGGGGCAUC,0.256,0.0948,0.0208,0.00760
GGAAACCGUGCGAUC,0.224,0.119,0.0141,0
GGAAACCGAAUUAUC,0.240,0.0895,0.0121,0
GGAAACCGCAUUGGC,0.208,0.129,0,0

Extract of 8 entries:

sequence,pool,inoculated region,leaf margin,systemic leaves
GGAAACCGUGGAUAC,0.288,0.274,0.106,0.0812
GGAAACCGGAAGGCC,0.192,0.0678,0.00539,0
GGAAACCGGCUACCC,0.176,0.108,0.0134,0
GGAAACCGAGACGCC,0.176,0.0632,0,0.00537
GGAAACCGAAUGCGC,0.256,0.117,0.0121,0
GGAAACCGGAUGGUC,0.288,0.100,0.0134,0
GGAAACCGAUCUAGC,0.144,0.0560,0.00539,0
GGAAACCGAAUUAUC,0.240,0.0895,0.0121,0